A mixed list of measured activities; the numbers were collected in NIAID ChemDB.

Shared fields: enzyme or target tests; species: HIV-1; protein: Protease

ICn is the concentration giving n% inhibition. An empty or dashed field is not shown. Fold resistance has wild type as its base. Inhibition is in % at the dose shown (toxicity tests: loss of growth or viability). Neighbouring rows are from separate reports.

structure | read by | strain | changes | measure | tested at | value
CC(C)[C@H](NC(=O)N(C)Cc1ccccn1)C(=O)N[C@@H](Cc1ccccc1)[C@H](O)[C@H](O)[C@H](Cc1ccccc1)NC(=O)[C@@H](NC(=O)N(C)Cc1ccccn1)C(C)C | HPLC |  | PR-A71T | fold resistance |  | 1.2
Cc1ccc(Cl)cc1N1CCN(Cc2cn([C@@H](Cc3ccccc3)[C@H](Cc3ccccc3)NC(=O)OCC(C)C)nn2)CC1 | fluorescence |  |  | IC50 |  | <5 µM
O=C(Nc1ccc(F)cc1F)c1cc2n(n1)[C@H](C(F)(F)F)C1CCCCC1N2 |  |  |  | inhibition | 150 µM | 35.09%
O=C(N[C@@H](Cc1ccccc1)[C@H](Cc1ccccc1)n1cc(CN2CCN(c3ccccn3)CC2)nn1)OC1CCCC1 | fluorescence |  |  | IC50 |  | >5 µM
CC(C)C[C@H](NC(=O)[C@@H](N)CO)C(=O)N[C@@H](CC(N)=O)C(=O)N[C@@H](Cc1ccccc1)B(O)O | HPLC |  | PR-M46I V82F I84V L90M | fold resistance |  | 7.67
CC1=CC(C)(C)Nc2ccc(OC(=O)c3cccc([N+](=O)[O-])c3)cc21 |  |  |  | inhibition | 150 µM | 26.99%
CNC(=O)[C@@H](NC(=O)[C@H](OCc1ccccc1)[C@H](O)[C@@H](O)[C@@H](OCc1ccccc1)C(=O)N[C@H]1c2ccccc2C[C@H]1O)C(C)C |  |  | PR-G48V L90M | fold resistance |  | 27.8
O=C1[C@H]2CCCC[C@H]2C(=O)N1c1ccc2[nH]c(=S)sc2c1 |  |  |  | inhibition | 150 µM | 48.1%
Cc1cc(SC2=C(O)C[C@@](CCc3ccc(O)cc3)(C(C)C)OC2=O)c(C(C)(C)C)cc1CO | HPLC / absorbance |  | PR-V32I | fold resistance |  | 3.3
CC(C)[C@H](NC(=O)CCC1CCCCN1)C(=O)N[C@@H](Cc1ccccc1)C(O)[C@H](Cc1ccccc1)NC(=O)[C@@H](NC(=O)CCC1CCCCN1)C(C)C | fluorescence |  |  | IC50 |  | ~0.01 µM
CC(C)C[C@H](NC(=O)[C@@H](N)[C@@H](C)O)C(=O)N[C@@H](CC(N)=O)C(=O)N[C@@H](Cc1ccccc1)B(O)O | HPLC |  | PR-M46I V82F I84V L90M | fold resistance |  | 6.94
Cc1cc(SC2=C(O)C[C@@](CCc3ccc(N)cc3)(C(C)C)OC2=O)c(C(C)(C)C)cc1CO | HPLC / absorbance |  | PR-V82F I84V | fold resistance |  | 5.3
CC(C)[C@H](NC(=O)N(C)Cc1ccccn1)C(=O)N[C@@H](Cc1ccccc1)[C@H](O)[C@H](O)[C@H](Cc1ccccc1)NC(=O)[C@@H](NC(=O)N(C)Cc1ccccn1)C(C)C | fluorescence |  | PR-R8Q | fold resistance |  | 32.1
Cc1cccc(C)c1OCC(=O)N[C@@H](Cc1ccccc1)[C@H](O)CN1CC[C@@H](Sc2ccncc2)C[C@H]1C(=O)NC(C)(C)C | fluorescence |  | PR-I84V | fold resistance |  | 14
CC(C)[C@H](NC(=O)OCCN1CCOCC1)C(=O)N[C@@H](Cc1ccccc1)C(O)[C@H](Cc1ccccc1)NC(=O)[C@@H](NC(=O)OCCN1CCOCC1)C(C)C | fluorescence |  |  | inhibition | 0.1 µM | 35%
COC(=O)N[C@@H](Cc1ccccc1)[C@H](Cc1ccccc1)n1cc(CN2CCN(c3cc(Cl)ccc3C)CC2)nn1 | fluorescence |  |  | IC50 |  | >5 µM
CC(C)[C@H](NC(=O)OCc1ccccc1)C(=O)N[C@@H](Cc1ccccc1)[C@H](O)[C@H](Cc1ccccc1)NC(=O)[C@@H](NC(=O)OCc1cccnc1)C(C)C | fluorescence |  |  | IC50 |  | <0.005 µM
CC(C)(C)OC(=O)N[C@@H](Cc1ccccc1)[C@H](O)CNC[C@@H](O)[C@H](Cc1ccc(OCC(=O)N2CCOCC2)cc1)NC(=O)OC(C)(C)C | HPLC |  | PR-V82A | fold resistance |  | 32
CC(C)[C@H](NC(=O)OCc1nccs1)C(=O)N[C@@H](Cc1ccccc1)C(O)[C@H](Cc1ccccc1)NC(=O)[C@@H](NC(=O)OCc1nccs1)C(C)C | fluorescence |  |  | IC50 |  | <0.01 µM
CC1=CC(C)(C)Nc2ccc(OC(=O)c3cccc4ccccc34)cc21 |  |  |  | inhibition | 150 µM | 34.66%
COC(=O)c1ccc(CN2[C@H](COc3ccccc3)[C@H](O)[C@@H](O)[C@@H](COc3ccccc3)N(Cc3ccc(C(=O)OC)cc3)S2(=O)=O)cc1 |  |  | PR-V82A | fold resistance |  | 1.1
CC1=CC(C)(C)Nc2ccc(OS(=O)(=O)c3ccc(C)cc3)cc21 |  |  |  | inhibition | 150 µM | 32.29%
CC(C)[C@H](NC(=O)N(C)Cc1ccccn1)C(=O)N[C@@H](Cc1ccccc1)[C@H](O)[C@H](O)[C@H](Cc1ccccc1)NC(=O)[C@@H](NC(=O)N(C)Cc1ccccn1)C(C)C | fluorescence |  | PR-R8Q | fold resistance |  | 32.1
CC(C)[C@H](NC(=O)CCc1cccnc1)C(=O)N[C@@H](Cc1ccccc1)C(O)[C@H](Cc1ccccc1)NC(=O)[C@@H](NC(=O)CCc1cccnc1)C(C)C | fluorescence |  |  | inhibition | 0.1 µM | 81%
C/C(=N\O)c1cccc(CN2[C@H](COc3ccccc3)[C@H](O)[C@@H](O)[C@@H](COc3ccccc3)N(Cc3cccc(/C(C)=N/O)c3)S2(=O)=O)c1 |  |  | PR-G48V L90M | fold resistance |  | 1.86
Cc1cc(SC2=C(O)CC(CCc3ccc(O)cc3)(C3CCCCC3)OC2=O)c(C(C)(C)C)cc1CO | HPLC / absorbance |  | PR-V82F I84V | fold resistance |  | 9.3
O=C(OC1CCCCC1)c1ccc2c(c1)C1C=CCC1[C@@H](C(=O)O)N2 |  |  |  | inhibition | 150 µM | 57.65%
CNC(=O)CN1[C@H](COc2ccccc2)[C@H](O)[C@@H](O)[C@@H](COc2ccccc2)N(CC(=O)NC)S1(=O)=O |  |  | PR-I84V | fold resistance |  | 3.32
Cc1cccc(N2CCN(Cc3cn([C@@H](Cc4ccccc4)[C@H](Cc4ccccc4)NC(=O)OC4CCCC4)nn3)CC2)c1 | fluorescence |  |  | IC50 |  | <5 µM
CC(C)[C@H](NC(=O)OCc1ccccc1)C(=O)NC(Cc1ccccc1)C(O)C(F)(F)C(Cc1ccccc1)NC(=O)[C@@H](NC(=O)OCc1ccccc1)C(C)C | fluorescence |  |  | IC50 |  | <0.001 µM
CN1[C@H](COc2ccccc2)[C@H](O)[C@@H](O)[C@@H](COc2ccccc2)N(C)S1(=O)=O |  |  | PR-G48V L90M | fold resistance |  | 4.93
CC(C)[C@H](NC(=O)OCc1ccccn1)C(=O)NC(Cc1ccccc1)C(O)C(F)(F)C(N)Cc1ccccc1 | fluorescence |  |  | inhibition | 0.1 µM | 47%
O=C1N(Cc2ccc(CO)cc2)[C@H](COc2ccccc2)[C@H](O)[C@@H](O)[C@@H](COc2ccccc2)N1Cc1ccc(CO)cc1 | fluorescence | IIIB | PR-L90M PR-I84V | fold resistance |  | 13.5